Measured values as given in patent publication US20250064988A1, “MRI-AGENT LOADED PLATELET COMPOSITIONS AND METHODS OF PREPARING AND USING THE SAME” (Cellphire, Inc., priority 2022, published 2025).

Test system: platelets
Test: Example 10 flow cytometry MFI in the FITC channel
Type: cell-based, human
Settings: 50 μM loading

TAT-FITC-DOTA-GD: DOTA chelated gadolinium TAT-peptide with FITC label; TAT sequence [K]LRKKRRQRRR (SEQ ID NO: 2) (KLRKKRRQRRR; FITC label, DOTA-gadolinium chelate; TAT Functional Fragment)
FITC fluorescence, cryopreserved platelets versus FDPDs: decreased from cryopreservation to FDPDs | mean fluorescence intensity (MFI) in the FITC channel (unloaded product subtracted as background): low
